# Source: PubChem BioAssay AID559 (PCMD, 2006)
# The chains behind the UniProt entries cited, without tags or fusion partners.
# UniProt P0A8V2, whole entry, looked up: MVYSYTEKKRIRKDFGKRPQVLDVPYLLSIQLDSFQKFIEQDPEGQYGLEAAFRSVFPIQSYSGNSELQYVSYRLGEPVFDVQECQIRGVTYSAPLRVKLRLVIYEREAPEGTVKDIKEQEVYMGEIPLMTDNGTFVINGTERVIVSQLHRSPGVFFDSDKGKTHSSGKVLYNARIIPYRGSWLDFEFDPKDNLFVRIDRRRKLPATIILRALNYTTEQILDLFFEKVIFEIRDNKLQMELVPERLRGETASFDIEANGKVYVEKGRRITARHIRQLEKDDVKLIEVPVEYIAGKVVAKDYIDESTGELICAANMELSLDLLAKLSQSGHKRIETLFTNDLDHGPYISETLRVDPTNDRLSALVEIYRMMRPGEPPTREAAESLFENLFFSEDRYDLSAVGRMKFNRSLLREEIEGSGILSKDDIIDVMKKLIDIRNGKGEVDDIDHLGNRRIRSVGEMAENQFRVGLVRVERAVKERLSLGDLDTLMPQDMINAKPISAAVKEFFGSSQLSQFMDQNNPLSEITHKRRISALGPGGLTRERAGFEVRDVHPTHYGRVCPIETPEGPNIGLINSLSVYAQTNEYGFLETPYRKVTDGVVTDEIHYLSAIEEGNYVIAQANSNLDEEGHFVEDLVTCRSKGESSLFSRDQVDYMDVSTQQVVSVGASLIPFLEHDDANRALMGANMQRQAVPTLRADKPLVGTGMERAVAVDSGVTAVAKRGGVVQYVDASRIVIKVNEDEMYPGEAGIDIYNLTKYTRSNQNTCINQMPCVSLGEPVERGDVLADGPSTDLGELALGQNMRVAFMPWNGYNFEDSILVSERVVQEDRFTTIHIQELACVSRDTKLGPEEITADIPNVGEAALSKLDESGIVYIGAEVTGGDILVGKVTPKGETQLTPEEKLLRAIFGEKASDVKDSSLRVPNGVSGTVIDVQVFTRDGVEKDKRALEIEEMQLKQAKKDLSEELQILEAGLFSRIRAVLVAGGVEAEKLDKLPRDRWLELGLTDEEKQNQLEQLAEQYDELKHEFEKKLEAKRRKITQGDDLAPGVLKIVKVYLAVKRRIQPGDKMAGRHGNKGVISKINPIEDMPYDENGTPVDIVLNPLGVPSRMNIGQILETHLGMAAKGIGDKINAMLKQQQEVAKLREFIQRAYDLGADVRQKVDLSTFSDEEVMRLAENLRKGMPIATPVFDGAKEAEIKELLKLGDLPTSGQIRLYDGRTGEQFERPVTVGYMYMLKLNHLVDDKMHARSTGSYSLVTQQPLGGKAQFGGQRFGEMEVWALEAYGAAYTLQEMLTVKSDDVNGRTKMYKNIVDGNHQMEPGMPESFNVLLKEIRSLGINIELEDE
# Only a part is listed here, and it is no random draw. The source made the active and inactive calls. No stated cut-off is given here; in the data, active means inhibition above about 20%; inactive means the rest.
# Molecular target: DNA-directed RNA polymerase subunit beta (Escherichia coli (strain K12)) (UniProt P0A8V2)
# Test: E. coli RNAP inhibitors, biochemical (AID 559);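 further: 0% = enzyme without compound and 100% = no enzyme blank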
# Conditions: fluorescence transcription assay, hits give high values,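 tested at 10 µM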
row,SMILES,inhibition
1,O=P1(Nc2ccccn2)COc2ccccc2OC1,inactive: 12.1%
2,Clc1n[nH]nc1-c1nn[nH][15n]1,inactive: 2%
3,Cc1nn(-c2ccccc2)c2c1P(=O)(N1CCOCC1)N(C)C(c1ccccc1)=N2 (centres undefined),inactive: 1.95%
4,O=P1(Nc2ncccn2)COc2ccccc2OC1,inactive: 11.7%
5,O=P1(Nc2ccc(Br)cn2)COc2ccccc2OC1,inactive: -5.19%
6,Cc1ccc(OCC(=O)OC2CN3CCC2CC3)cc1 (centres undefined),inactive: 9.11%
7,CCOP1(=S)c2c(C)nn(CCC#N)c2N=C(c2ccccc2F)N1C (centres undefined),inactive: 4.48%
8,O=P(Nc1nccs1)(c1ccccc1)c1nc2ccccc2s1 (centres undefined),inactive: 7.56%
9,CCOP1(=S)c2c(C)nn(CCC#N)c2N=C(c2ccc(F)cc2)N1C (centres undefined),inactive: 5.67%
10,Cc1cccc(OCC(=O)OC2CN3CCC2CC3)c1 (centres undefined),inactive: 11.7%
11,O=C(OC1CN2CCC1CC2)C12CC3CC(CC(C3)C1)C2 (centres undefined),inactive: -3.97%
12,COP1(=S)c2c(C)nn(CCC#N)c2N=C(c2ccc(F)cc2)N1C (centres undefined),inactive: 1.11%
13,O=C(COc1ccccc1)OC1CN2CCC1CC2 (centres undefined),inactive: 6.51%
14,CCc1nc2c(n1)c1c(non1O)c1c2no[n+]1[O-],inactive: 4.52%
15,O=P1(Nc2nc3ccc(Cl)cc3s2)COc2ccccc2O1 (centres undefined),inactive: 4.82%
16,COC(=O)c1cc2c(s1)N=C(c1ccccc1)N(C)P2(=O)N1CCOCC1 (centres undefined),inactive: 3.25%
17,O=C(OC1CN2CCC1CC2)c1cccc(Cl)c1 (centres undefined),inactive: -3.75%
18,O=P(Nc1nccs1)(c1ccccc1)c1ccccc1,inactive: 8.97%
19,c1nnnn1CCn1cnnn1,inactive: 2.34%
